Laboratory results taken from patent publication US20070219159A1, “CYCLODEXTRIN COMPOSITIONS AND METHODS OF TREATING VIRAL INFECTIONS” (priority 2002, published 2007).

Measured: SI = CC50/EC50

methyl-β-cyclodextrin [MBCD]
0: Flu B | Vaccinia | Cowpox | Yellow fever

OC[C@H]1O[C@@H]2O[C@H]3[C@H](O)[C@@H](O)[C@@H](O[C@H]4[C@H](O)[C@@H](O)[C@@H](O[C@H]5[C@H](O)[C@@H](O)[C@@H](O[C@H]6[C@H](O)[C@@H](O)[C@@H](O[C@H]7[C@H](O)[C@@H](O)[C@@H](O[C@H]8[C@H](O)[C@@H](O)[C@@H](O[C@H]1[C@H](O)[C@H]2O)O[C@@H]8CO)O[C@@H]7CO)O[C@@H]6CO)O[C@@H]5CO)O[C@@H]4CO)O[C@@H]3CO [BCD, β-cyclodextrin]
0: Vaccinia | Cowpox | VEE | Yellow fever
